Assay results as given in paper PMC10780275, “Evaluation of Anti-Trypanosoma cruzi Activity of Chemical Constituents from Baccharis sphenophylla Isolated Using High-Performance Countercurrent Chromatography” (Molecules, 2023).

Key:
[1] = system: T. cruzi trypomastigote; experiment: Activity against trypomastigote forms of T. cruzi (resazurin viability, 24 h); assay type: cell-based, Trypanosoma cruzi (Y strain); settings: selectivity index = CC50 against NCTC cells / EC50 against trypomastigotes
Description: NCTC cells (clone 929, ATCC) were cultured in RPMI-1640 supplemented with 10% of fetal bovine serum (FBS), at 37 °C within a 5% CO2-humidified incubator. To collect peritoneal macrophages, the abdominal cavity of female BALB/c mice was rinsed with an RPMI-1640 medium, containing 10% FBS. These macrophages were then cultured overnight at 37 °C in a 5% CO2-humidified incubator. Trypanosoma cruzi trypomastigotes (Y strain) were maintained within Rhesus monkey kidney epithelial cells (LLC-MK2) cells using an RPMI-1640 medium supplemented with 2% FBS, and the incubation took place at 37 °C with 5% CO2 and humidity.
Tests of the activity from compounds 1–8 against the trypomastigote form of T. cruzi was performed, according to procedures previously reported. Trypomastigotes, in a concentration of 1 × 10^6 parasites/well, were seeded in 96-well plates and incubated with the tested compounds, alongside the standard drug benznidazole, in serial dilutions ranging from 1.7 to 150 μM, for 24 h at 37 °C in a 5% CO2 incubator. Subsequently, 20 μL of 10% resazurin was added, in order to determine cell viability. Absorbance was read in a plate spectrofluorometer Filter Max F5 Multi-Mode Microplate Reader at 570 nm. Untreated cells were used as negative controls, and cells treated with benznidazole were used as positive controls. The 50% effective concentration (EC50) against trypomastigote forms was determined by the regression of a sigmoid dose–response curve expressed in μM.
The CC50 and EC50 values were derived through the analysis of sigmoidal dose–response curves using GraphPad Prism 6.0 software. The samples were subjected to duplicate testing, and the experiments were replicated a minimum of two times.

[2] = system: T. cruzi amastigote; experiment: Activity against intracellular amastigotes of T. cruzi within infected macrophages (Giemsa, light microscope, 48 h); assay type: cell-based, Trypanosoma cruzi (Y strain); settings: selectivity index = CC50 against NCTC cells / EC50 against amastigotes
Source text: The experimental animals were sourced from the animal breeding facility located at Instituto Adolfo Lutz in São Paulo State, Brazil. Peritoneal macrophages were extracted from female BALB/c mice for intracellular experiments, while male BALB/c mice were utilized to sustain T. cruzi. These animals were provided unlimited access to both water and food, residing in sterilized enclosures within a meticulously regulated environment. All procedures were previously approved by the Animal Ethics Commission of Instituto Adolfo Lutz.
NCTC cells (clone 929, ATCC) were cultured in RPMI-1640 supplemented with 10% of fetal bovine serum (FBS), at 37 °C within a 5% CO2-humidified incubator. To collect peritoneal macrophages, the abdominal cavity of female BALB/c mice was rinsed with an RPMI-1640 medium, containing 10% FBS. […]
The EC50 values for compounds 1–8 against intracellular amastigotes of T. cruzi were determined within infected macrophages. […] Trypomastigotes, previously derived from infected LLC-MK2 cells, underwent washing in an RPMI-1640 medium, were quantified, and were then employed to infect the macrophages at a concentration of 1 × 10^6 trypomastigotes per well. […] At the final stage of the experiment, the chamber slides were fixed using MeOH and stained with Giemsa before being assessed under a light microscope (Thermo EVOS M5000). […]

SMILES	T. cruzi Trypomastigote SI [1]	T. cruzi Amastigote SI [2]	T. cruzi Trypomastigote SI ([1]; listed as benznidazole)
C=C1C[C@@]23CC[C@H]4[C@@](C)(CCC[C@@]4(C)C(=O)O)[C@@H]2CC[C@@H]1C3 [Compound 3, Ent-kaur-16-en-19-oic acid]	>18.8		
COC1C[C@@H](CC[C@@H]2[C@@H](C)CC=C3C(CO)(CO)CCC[C@@]32C)CO1 (relative stereo) [Compound 1, 15,16-epoxy-18,19-dihydroxy-16-methoxy-syn-labd-5-ene]	>10.0		
C[C@H]1CC=C2C(CO)(CO)CCC[C@]2(C)[C@@H]1CC[C@H](CCO)COC(=O)/C=C/c1ccc(O)cc1 [Compound 2, gaudichaudol C]	> 68.7		
COc1c(O)cc2oc(-c3ccc(O)c(O)c3)cc(=O)c2c1O [Compound 5, Eupafolin]		> 74.1	
O=C(Cn1ccnc1[N+](=O)[O-])NCc1ccccc1 [Benznidazole, benznidazole, reference compound]	>10.7	>36.4	> 10.7
